Experimental data as given in patent US20070196359A1, “Halosuccinimide biocide” (Minntech Corporation, priority 2006, published 2007).

Assay: Corrosion rate of brass coupons, ASTM G31-72 (04) (FIG. 4-6)

| Compound | Corrosion Rate (NBS, 0.05% Mazon RI 246) [mg/min] | Corrosion Rate (NBS, 0.10% Mazon RI 246) [mg/min] | Corrosion Rate (NBS, 0.15% Mazon RI 246) [mg/min] | Corrosion Rate (NBS, 0.25% Mazon RI 246) [mg/min] | corrosion rate relative to the rate usually observed for water alone (about 1.0% NBS, pH about 3 to about 7, 25° C) | Corrosion Rate (1% NCS, 0.05% benzotriazole) [mg/min] | Corrosion Rate (1% NCS, 0.1% benzotriazole) [mg/min] |
| --- | --- | --- | --- | --- | --- | --- | --- |
| O=C1CCC(=O)N1Br [NBS, N-bromosuccinimide] | 0.38 | 0.12 | 0.08 | 0.05 | about three fold |  |  |
| O=C1CCC(=O)N1Cl [NCS, N-chlorosuccinimide] |  |  |  |  |  | 0.02 | 0.02 |
